Measured values taken from US10253035B2 (priority 2016, dated 2019).
Read-outs that look alike come from different tables or passages of the source.

System: Mtb K204
[1] = KAN MIC for K204 Mtb in the presence of compound at the specified concentration, Example 4
[2] = anti-TB activity of KAN against Mtb K204 with compound at concentration tested (100-fold IC50 or 100 μM), Example 3
[3] = activity of KAN against Mtb K204 with compound at concentration tested, Example 1, first of the two experiments printed
[4] = activity of KAN against Mtb K204 with compound at concentration tested, Example 1, second of the two experiments printed

Row | Structure (SMILES) | K204 MICKAN [1] | K204 MICKAN [2] | further results
1 | CC1=C(c2ccccc2)S(=O)(=O)N=C1NCCN1CCCCC1 [Compound 33a] | 5 µg/mL | – | –
2 | CN(c1cccc(Br)c1)S(=O)(=O)c1ccc2[nH]c(=O)c(=O)[nH]c2c1 [Compound 38] | – | 2.5 µg/mL | –
3 | CCN1CCN(CCNC2=NS(=O)(=O)C(c3ccc(OC)cc3)=C2C)CC1 [Compound 37d] | 5 to 10 µg/mL | – | –
4 | Cc1cccc(N(C)S(=O)(=O)c2ccc3[nH]c(=O)c(=O)[nH]c3c2)c1 [Compound 41] | – | 2.5 to 5 µg/mL | –
5 | COc1ccc(C2=C(C)C(NCCN3CCN(C)CC3)=NS2(=O)=O)cc1 [Compound 36d] | 2.5 to 5 µg/mL | – | –
6 | CC1=C(c2ccc(F)cc2)S(=O)(=O)N=C1NCc1ccccc1 [Compound 89b] | 10 µg/mL | – | –
7 | CCN1CCN(CCCNC2=NS(=O)(=O)C(c3ccc(C(C)C)cc3)=C2C)CC1 [Compound 15f] | 10 µg/mL | – | –
8 | CC1=C(c2ccc(F)cc2)S(=O)(=O)N=C1NCc1ccccn1 [Compound 112b] | 10 µg/mL | – | –
9 | CC1=C(c2ccc(C)c(C)c2)S(=O)(=O)N=C1NCC(=O)NCc1ccc(C)o1 [Compound 116i] | 10 µg/mL | – | –
10 | CC1=C(c2ccc(C)c(C)c2)S(=O)(=O)N=C1NCCCN1CCN(C2CCCCC2)CC1 [Compound 17i] | 5 µg/mL | – | –
11 | COC(=O)c1cc2occc2n1CC(=O)C(C)(C)C [Compound 1m] | – | – | K204 MICKAN [3]: ≥10, 10 μg/mL; K204 MICKAN [4]: ≥10, 10 μg/mL
12 | CCN1CCN(CCNC2=NS(=O)(=O)C(c3ccc(F)cc3)=C2C)CC1 [Compound 37b] | 2.5 to 5 µg/mL | – | –
13 | CC(C)c1cccc(N(C)S(=O)(=O)c2ccc3[nH]c(=O)c(=O)[nH]c3c2)c1 [Compound 43] | – | 2.5 to 5 µg/mL | –
14 | CCCCc1cccc(N(C)S(=O)(=O)c2ccc3[nH]c(=O)c(=O)[nH]c3c2)c1 [Compound 44] | – | 5 to 10 µg/mL | –
15 | CC1=C(c2ccc(C)c(C)c2)S(=O)(=O)N=C1NCCCN1CCOCC1 [Compound 13i] | 5 µg/mL | – | –
16 | CC1=C(c2cccc(Cl)c2)S(=O)(=O)N=C1NCCCN1CCOCC1 [Compound 13g] | 2.5 to 5 µg/mL | – | –
17 | CN(c1cccc(F)c1)S(=O)(=O)c1ccc2[nH]c(=O)c(=O)[nH]c2c1 [Compound 37] | – | 5 µg/mL | –
18 | CC1=C(c2ccc(F)cc2)S(=O)(=O)N=C1N1CCC(N2CCCCC2)CC1 [Compound 46b] | 5 µg/mL | – | –
19 | CC(C)c1ccc(NS(=O)(=O)c2ccc3[nH]c(=O)c(=O)[nH]c3c2)cc1 [Compound 34] | – | 5 µg/mL | –
20 | CN(c1ccc(Br)cc1)S(=O)(=O)c1ccc2[nH]c(=O)c(=O)[nH]c2c1 [Compound 29] | – | 2.5 µg/mL | –
21 | O=c1[nH]c2ccc(S(=O)(=O)Nc3ccc(Br)cc3)cc2[nH]c1=O [Compound 30] | – | 5 µg/mL | –
22 | CCC(=O)CN1C(=O)C2(OCCO2)c2ccccc21 [Compound 2l] | – | – | K204 MICKAN [3]: ≥10, 10 μg/mL; K204 MICKAN [4]: ≥10, 10 μg/mL
23 | CC1=C(c2ccc(C)cc2)S(=O)(=O)N=C1NCCN1CCOCC1 [Compound 35e] | 5 µg/mL | – | –
24 | COc1cc(OC)cc(N(C)S(=O)(=O)c2ccc3[nH]c(=O)c(=O)[nH]c3c2)c1 [Compound 40] | – | 5 to 10 µg/mL | –
25 | CN(c1ccc(Cl)cc1)S(=O)(=O)c1ccc2[nH]c(=O)c(=O)[nH]c2c1 [Compound 35] | – | 2.5 µg/mL | –
26 | CC1=C(c2ccc(Cl)cc2)S(=O)(=O)N=C1NCCCN1CCN(C)CC1 [Compound 14c] | 5 µg/mL | – | –
27 | CCN1CCN(CCCNC2=NS(=O)(=O)C(c3ccc(C)cc3)=C2C)CC1 [Compound 15e] | 5 µg/mL | – | –
28 | CCCN1CCN(C2=NS(=O)(=O)C(c3ccc(C)c(C)c3)=C2C)CC1 [Compound 62i] | 5 µg/mL | – | –
